Data as given in paper PMC9457600, “Synthesis, Leishmanicidal, Trypanocidal, Antiproliferative Assay and Apoptotic Induction of (2-Phenoxypyridin-3-yl)naphthalene-1(2H)-one Derivatives” (Molecules, 2022).

How the values were obtained:
[1] = tested on: K562-TAX; assay: MTS antiproliferative assay K562-TAX; format: cell-based, human; settings: average IC50 of non-cancer cell line / IC50 of cancer cell line
Excerpt: (§1) The cell lines used were acquired from the American Type Culture Collection (ATCC), CCRF-CEM (T lymphoblastic leukemia), K562 ([…]), U2OS (osteosarcoma), HCT116 (colon carcinoma), A549 (lung adenocarcinoma) and HCT116p53−/− (HCT116 cell line mutated in p53) Horizon Discovery Ltd., (Waterbeach, Cambridge, United Kingdom).
(§2) In our laboratory, IMTM, we generated the daunorubicin-resistant subline of CCRF-CEM cells (CEM-DNR bulk) and paclitaxel-resistant subline K562-TAX, as described previously. […] Both ABC transporters are involved in drug resistance. As a control, human fibroblasts MRC-5 and BJ cell lines were used. […] Adherent cells were passaged using PBS containing 0.25% trypsin plus 0.01% EDTA (ethylenediamine tetraacetic acid) every 2–3 days.
(§3) The antiproliferative activity of compounds was determined using a standard 3-(4,5-dimethylthiazol-2yl)-5-(3-carboxymethoxyphenyl)-2-(4-sulfophenyl)-2H-tetrazolium (MTS) reduction assay on a robotic high throughput screening platform (HighResBio, Boston, MA, USA) following treatment of cells for 3–7 days. The IC50 values were calculated from the appropriate dose–response curves with Dotmatics software (San Diego, CA, USA).

[2] = tested on: K562; assay: MTS antiproliferative assay K562; format: cell-based, human; settings: average IC50 of non-cancer cell line / IC50 of cancer cell line
Excerpt: as §1, §2, §3

[3] = tested on: A549; assay: MTS antiproliferative assay A549; format: cell-based, human; settings: average IC50 of non-cancer cell line / IC50 of cancer cell line
Excerpt: as §1, §2, §3

[4] = tested on: U2OS; assay: MTS antiproliferative assay U2OS; format: cell-based, human; settings: average IC50 of non-cancer cell line / IC50 of cancer cell line
Excerpt: as §1, §2, §3

[5] = tested on: CCRF-CEM; assay: MTS antiproliferative assay CCRF-CEM; format: cell-based, human; settings: average IC50 of non-cancer cell line / IC50 of cancer cell line
Excerpt: as §1, §2, §3

[6] = tested on: promastigotes of Leishmania (V.) braziliensis strain MHOM/CO/87/UA301; assay: MTT viability of L. braziliensis promastigotes; format: cell-based;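 note: promastigote proliferation in 96-well plates, MTT reduction read at 570 nm, EC50 derived from growth curves, cytotoxicity CC50 likewise by MTT in BMDM and VERO cells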

Row | Structure (SMILES) | therapeutic index (TI) K562-TAX [1] | therapeutic index (TI) K562 [2] | therapeutic index (TI) A549 [3] | therapeutic index (TI) U2OS [4] | therapeutic index (TI) CCRF-CEM [5] | times more active against the parasites than on the host cells, versus miltefosine SI ([6]; BMDM) [times] | times more active against the parasites than on the host cells, versus miltefosine SI ([6]; VERO)
1 | COc1ccc2c(c1)C(=O)/C(=C/c1cccnc1Oc1ccc(F)cc1)CC2 [Compound 15, (E)-2-{[2-(4-Fluorophenoxy)pyridin-3-yl]methylene}-3,4-dihydro-7-methoxynaphthalen-1(2H)-one] | 2.5 | – | – | – | – | – | –
2 | COc1ccc2c(c1)CC/C(=C\c1cccnc1Oc1ccc(F)cc1)C2=O [Compound 14, (E)-2-{[2-(4-Fluorophenoxy)pyridin-3-yl]methylene}-3,4-dihydro-6-methoxynaphthalen-1(2H)-one] | – | 8.7 | – | – | – | – | –
3 | COc1ccc2c(c1)CC/C(=C\c1cccnc1Oc1ccc(Cl)cc1)C2=O [Compound 22, (E)-2-{[2-(4-Chlorophenoxy)pyridin-3-yl]methylene}-3,4-dihydro-6-methoxynaphthalen-1(2H)-one] | – | 12.8 | 5.1 | 6.2 | 9.6 | – | –
4 | COc1ccc2c(c1)CC/C(=C\c1cccnc1Oc1ccc(Br)cc1)C2=O [Compound 18, (E)-2-{[2-(4-Bromophenoxy)pyridin-3-yl]methylene}-3,4-dihydro-6-methoxynaphthalen-1(2H)-one] | 2.8 | 11.5 | 5.2 | 6.9 | 8.4 | – | –
5 | COc1ccc2c(c1)C(=O)/C(=C/c1cccnc1Oc1ccc(Cl)cc1)CC2 [Compound 23, (E)-2-{[2-(4-Chlorophenoxy)pyridin-3-yl]methylene}-3,4-dihydro-7-methoxynaphthalen-1(2H)-one] | 3.1 | – | – | – | – | ≥ 35.1 | at least 3.5 times
6 | COc1ccc2c(c1)C(=O)/C(=C/c1cccnc1Oc1ccc(Br)cc1)CC2 [Compound 19, (E)-2-{[2-(4-Bromophenoxy)pyridin-3-yl]methylene}-3,4-dihydro-7-methoxynaphthalen-1(2H)-one] | 12 | – | – | – | – | – | –
